Measurements published in publication PMC7846482 (The Journal of Biological Chemistry, 2021).

Target: SARS-CoV-2 spike glycoprotein (Severe acute respiratory syndrome …, UniProt P0DTC2)
Assay: immunostaining of cells or tissue

Binder | binding result (one partner purified) | binding result
mouse anti-SARS-CoV-2 spike monoclonal antibody clone S3D8 (antibody, V domains shown) VH: QVQLQQSGAELVKPGASVKLSCKASGYTFTSYYMYWMKQRPGQGLEWIGEINPSNGGTNFNEKFKSKATLTVDKSSSTAYMQLSSLTSEDSAVYYCTIFITRDAMDYWGQGTSVTVSS VL: QIVLTQSPAIMSASPGEKVTLTCSASSSVSSSYLFWYQQKPGSSPKLWIYTTSNLASGVPARFSGSGSGTSYSLTISSMEAEDAASYFCHQWSSYPPTFGAGTKLELK | binds | –
recombinant human/mouse chimeric antibody S3D8h (antibody, V domains shown) VH: QVQLQQSGAELVKPGASVKLSCKASGYTFTSYYMYWMKQRPGQGLEWIGEINPSNGGTNFNEKFKSKATLTVDKSSSTAYMQLSSLTSEDSAVYYCTIFITRDAMDYWGQGTSVTVSS VL: QIVLTQSPAIMSASPGEKVTLTCSASSSVSSSYLFWYQQKPGSSPKLWIYTTSNLASGVPARFSGSGSGTSYSLTISSMEAEDAASYFCHQWSSYPPTFGAGTKLELK | – | binds
mouse anti-SARS-CoV-2 spike monoclonal antibody clone S1D7 (antibody, V domains shown) VH: QVQLQQSGAELVKPGASVKLSCKASGYTFTSYYIYWMKQRPGQGLEWIGEINPNNGGTNFNEKFKSKATLTVDKSSSTAYMQLSSLTSEDSAVYYCTRGHSDYWGQGTTLTVSS VL: DIVLTQSPASLAVSLGQRATISCRASESVEYYGTGLMQWYQQKPGQPPKLLIYAASNVESGVPARFSGSGSGTDFSLNIHPVEEDDIAMYFCQQTRKVPYTFGGGTKLEIK | binds | –
recombinant human/mouse chimeric antibody S1D7h (antibody, V domains shown) VH: QVQLQQSGAELVKPGASVKLSCKASGYTFTSYYIYWMKQRPGQGLEWIGEINPNNGGTNFNEKFKSKATLTVDKSSSTAYMQLSSLTSEDSAVYYCTRGHSDYWGQGTTLTVSS VL: DIVLTQSPASLAVSLGQRATISCRASESVEYYGTGLMQWYQQKPGQPPKLLIYAASNVESGVPARFSGSGSGTDFSLNIHPVEEDDIAMYFCQQTRKVPYTFGGGTKLEIK | – | binds

Like-named read-outs stand apart in the source and are kept apart here.
